Pooled drug test results. Numbers come from NIAID ChemDB, via PubChem.

All rows: whole-cell or culture tests; organism: Hepatitis C virus; measure: EC50

Blank or dashed fields: not listed here. Conditions beyond the fields shown may differ between rows. ECn is the concentration giving n% inhibition of infection, replication or growth. Two numbers with a dash give a range or band.

{"smiles": "COC(=O)N[C@H](C(=O)N1CCC[C@@H]1C1=NCC(c2cnc(-c3ccc(-c4cnc([C@H]5CCCN5C(=O)[C@@H](NC(=O)OC)[C@@H](C)OC)[nH]4)c(F)c3)nc2)=N1)[C@@H](C)OC", "strain": "1b", "value": "0.00001–0.000999 µM"}
{"smiles": "CCCC(NC(=O)C1C2CCCC2CN1C(=O)[C@@H](C)N1CCCCC1)C(=O)C(=O)NC1CC1", "strain": "1b", "read by": "replicon", "value": "<100 µM"}
{"smiles": "Oc1ccc(-c2[nH]c3cnccc3c2C2CCCCC2)cc1", "strain": "1b", "read by": "replicon", "value": "<100 µM"}
{"smiles": "Cc1cc(-c2cnc([C@@H]3CCCN3C(=O)[C@@H](c3ccccc3)N(C)C)[nH]2)ccc1-c1ccc(-c2cnc([C@@H]3CCCN3C(=O)[C@H](c3ccccc3)N(C)C)[nH]2)cn1", "strain": "1b", "value": "0.00001–0.000999 µM"}
{"smiles": "Fc1cccc(-c2cc3ccn(Cc4ccc(-c5ccc(C(F)(F)F)cc5C(F)(F)F)nn4)cc-3n2)c1F", "strain": "1b", "read by": "replicon", "value": "<100 µM"}
{"smiles": "CC(=O)N1c2cccc(O)c2NC2=C(C(=O)CC(C)(C)C2)C1c1ccc(C(F)(F)F)cc1F", "strain": "1b", "read by": "luciferase / reporter gene / replicon", "value": "3.75 µM"}
{"smiles": "Nc1nc(N2CCOCC2)c2nc(-c3cc4ccccc4o3)cnc2n1", "cell line": "Huh7", "value": "0.3–1 µM"}
{"smiles": "CN(C)[C@@H](C(=O)N1CCC[C@H]1c1ncc(-c2ccc(-c3ccc(-c4cnc([C@@H]5CCCN5C(=O)[C@@H](c5ccccc5)N(C)C)[nH]4)cn3)cc2)[nH]1)c1ccccc1", "strain": "1b", "value": "0.00001–0.000999 µM"}
{"smiles": "CCCC(NC(=O)C1C2CCCC2CN1C(=O)C(C)N1CCN(C(=O)OC(C)(C)C)CC1)C(=O)C(=O)NC1CC1", "strain": "1b", "read by": "replicon", "value": "<100 µM"}
{"smiles": "Nc1nc(N2CCOCC2)c2nc(-c3cc4ccccc4s3)cnc2n1", "value": "0.3–1 µM"}
{"smiles": "Cc1cc(C(=O)N2c3cccc(O)c3NC3=C(C(=O)CC(C)(C)C3)C2c2ccc(OCc3ccccc3)cc2F)nn1C", "strain": "1b", "read by": "luciferase / reporter gene / replicon", "value": "1.04 µM"}
{"smiles": "c1ccc(-c2[nH]c3cnccc3c2C2CCCCC2)cc1", "strain": "1b", "read by": "replicon", "value": "<100 µM"}
{"smiles": "C=CC1CC1(NC(=O)[C@@H]1C[C@@H](Oc2cc(-c3ccccc3)nc3cc(OC)ccc23)CN1C(=O)[C@H](C(C)C)N1CCCCC1)C(=O)OCC", "strain": "1b", "read by": "replicon", "value": "<100 µM"}
{"smiles": "Fc1ccc(-c2cc(Cn3ccc4c(C5CCCCC5)c(-c5cccc(F)c5F)nc-4c3)on2)c(C(F)(F)F)c1", "strain": "1b", "read by": "replicon", "value": "<100 µM"}
{"smiles": "COC(=O)Nc1ccc(-c2cnc3nc(N)nc(N4CCOCC4)c3n2)cc1", "cell line": "Huh7", "value": "<3 µM"}
{"smiles": "COC(=O)N[C@@H](C(=O)N(C)[C@@H](C)c1ncc(-c2ccc(-c3ncc(-c4cnc([C@H]5CCCN5C(=O)[C@@H](c5ccccc5)N5CCCCC5)[nH]4)cn3)cc2)[nH]1)c1ccccc1", "strain": "1b", "value": "0.00001–0.000999 µM"}
{"smiles": "CCOc1cccc(-c2cnc3nc(N)nc(N4CCOCC4)c3n2)c1", "cell line": "Huh7", "value": "1–10 µM"}
{"smiles": "COC(=O)N[C@@H](C(=O)N1CCC[C@H]1c1ncc(-c2ccc(-c3ccc(-c4cnc([C@@H]5CCCN5C(=O)C5CCN(C)CC5)[nH]4)cn3)cc2)[nH]1)c1ccccc1", "strain": "1b", "value": "0.001–0.099 µM"}
{"smiles": "Cn1cc(Cl)c(C(=O)N2c3cccc(O)c3NC3=C(C(=O)CC(C)(C)C3)C2c2ccc(OCc3ccccc3)cc2F)n1", "strain": "1b", "read by": "luciferase / reporter gene / replicon", "value": "1.49 µM"}
{"smiles": "CCCC(NC(=O)C1C2CCCC2CN1C(=O)[C@@H](N1CCCCC1)C(C)(C)C)C(=O)C(=O)NC1CC1", "strain": "1b", "read by": "replicon", "value": "<100 µM"}
{"smiles": "CC1(C)CC(=O)C2=C(C1)Nc1c(O)cccc1N(C(=O)OCc1ccccc1)C2c1ccc(OCc2ccccc2)cc1Cl", "strain": "1b", "read by": "luciferase / reporter gene / replicon", "value": "1.47 µM"}
{"smiles": "C=CC1CC1(NC(=O)[C@@H]1C[C@@H](Oc2cc(-c3ccccc3)nc3cc(OC)ccc23)CN1C(=O)[C@H](C(C)C)N1CCCCC1)C(=O)NS(=O)(=O)C1CC1", "strain": "1b", "read by": "replicon", "value": "<100 µM"}
{"smiles": "CCOc1nc(N)nc2ncc(-c3ccc(OC)c(F)c3)nc12", "cell line": "Huh7", "value": "1–10 µM"}
{"smiles": "CN(C)[C@@H](C(=O)N1CCC[C@H]1c1ncc(-c2ccc(-c3ccc(-c4cnc([C@@H]5CCCN5C(=O)[C@@H](c5ccccc5)N(C)C)[nH]4)nc3)cc2)[nH]1)c1ccccc1", "strain": "1b", "value": "0.00001–0.000999 µM"}
{"smiles": "Nc1nc(N2CCOCC2)c2nc(-c3ccc(F)cc3Cl)cnc2n1", "cell line": "Huh7", "value": "0.3–1 µM"}
{"smiles": "CCCC(NC(=O)C1C2CCCC2CN1C(=O)[C@H](C)N1CCCCC1)C(=O)C(=O)NC1CC1", "strain": "1b", "read by": "replicon", "value": ">100 µM"}
{"smiles": "CC1(C)CC(=O)C2=C(C1)Nc1c(O)cccc1NC2c1ccsc1", "strain": "1b", "read by": "luciferase / reporter gene / replicon", "value": ">10 µM"}
{"smiles": "C=CC1CC1(NC(=O)[C@@H]1C[C@@H](Oc2cc(-c3ccccc3)nc3cc(OC)ccc23)CN1C(=O)[C@H](C)N1CCCCC1)C(=O)NS(=O)(=O)C1CC1", "strain": "1b", "read by": "replicon", "value": "<100 µM"}
{"smiles": "Cc1cc(-c2cnc([C@@H]3CCCN3C(=O)[C@@H](c3ccccc3)N(C)C)[nH]2)ccc1-c1ccc(-c2cnc([C@@H]3CCCN3C(=O)[C@@H](c3ccccc3)N(C)C)[nH]2)cc1C", "strain": "1b", "value": "0.00001–0.000999 µM"}

Again, the opening 2 rows:

smiles	strain	read by	cell line	value
COC(=O)N[C@H](C(=O)N1CCC[C@@H]1C1=NCC(c2cnc(-c3ccc(-c4cnc([C@H]5CCCN5C(=O)[C@@H](NC(=O)OC)[C@@H](C)OC)[nH]4)c(F)c3)nc2)=N1)[C@@H](C)OC	1b	-	-	0.00001–0.000999 µM
CCCC(NC(=O)C1C2CCCC2CN1C(=O)[C@@H](C)N1CCCCC1)C(=O)C(=O)NC1CC1	1b	replicon	-	<100 µM